Measurements published in patent US10195189B2, “2-phenethenyltetrahydro isoquinolines useful as anti-HIV compounds” (priority 2014, dated 2019).

System: HIV-1 NL4-3 viral clone expressing Renilla luciferase
Format: cell-based
Details: ratio of CC50 over EC50
Protocol: Protocol for MT-2 Spread Assay
The present assay was used to screen candidate antiviral compounds by quantification of virus spread and production over several rounds of infection in vitro. MT-2, a HIV-1 permissive human T-cell line, was seeded in microtiter plates and was simultaneously treated with serially diluted compound and inoculated with a HIV-1 NL4-3 viral clone engineered to express Renilla luciferase in place of Net Following treatment, the culture was incubated for 96 hours. After the incubation, media was collected and used to estimate relative infectivity on the indicator cell line, TZM-bl. Additionally, viral spread was quantified by measuring luciferase activity via a commercially available luciferase substrate. In parallel, MT-2 cells were seeded and inoculated with mock virus in the presence of serially diluted compound. Compound toxicity was quantified 96 hours after treatment with AlamarBlue.
MT-2 (NIH Aids reagent program 237) cells were grown and maintained in an incubator at 37° C. with 5% CO2 using a basal medium of RPMI-1640 supplemented with 10% FBS. Cells were seeded in 100 μl at 2×10^4 cells/well in white walled 96-well microtiter plates. Candidate compounds were 3-fold serially diluted in the appropriate solvent. Solvent without compound was used as a no drug reference. Cells were inoculated at a multiplicity of 0.027 with an HIV-1 NL4-3 virus stock engineered to express Renilla luciferase in place of Net Diluted virus stock was first added to serially diluted compound. Compound and virus were delivered to cells in an equal volume (100 μl) and treated cultures were returned to the incubator for 96 hours. In parallel, plates for cytotoxicity estimates were prepared in the same way except cells were plated in clear walled 96-well microtiter plates and were mock infected.
At 96 hours post infection, 100 μl virus containing culture supernatant was collected from the treated and infected cultures and serially diluted in DMEM supplemented with 10% FBS, 1% sodium pyruvate, and 20 μg/ml DEAE dextran. One day prior, TZM-bl (ATCC PTA-5659) were cultured in basal medium of DMEM supplemented with 10% FBS and 1% sodium pyruvate and seeded at 7.5×10^3 cells/well in black walled 96-well microtiter plates. Diluted virus containing culture supernatant was transferred to TZM-bl cultures and incubated for 48 hours at 37° C. with 5% CO2. Infected TZM-bl cultures were fixed for 5 minutes with a 1% formaldehyde/0.2% gluteraldehyde/PBS solution then washed three times with PBS. Fixed cultures were incubated at 37° C. for 25 minutes with a 200 μg/ml MUG (4-Methylumbelliferyl β-D-[…])/DMEM solution. The reaction was stopped with an equal volume of 1M sodium carbonate and read at 360, 449 nm on fluorescence plate reader (Biotek).
At 96 hours post infection, 100 μl of culture supernatant was removed from the treated and infected cultures and EnduRen live cell substrate (Promega) was added at a final concentration 1.3 μg/ml. Cells were incubated for 1.5 hours at 37° C. with 5% CO2 then read on a luminescence plate reader (Biotek).
For all assays, data was imported into Accelrys Assay Explorer 3.3. In Assay Explorer, % inhibition (antiviral or cytotoxicity) was calculated using the solvent control as a reference by the following equation: 1−(SignalCompound/SignalReference). The % Inhibition and compound concentration data was fitted using the following 4-parameter logistic model (Assay Explorer model 42):
[formula] where X is compound concentration, Y is % inhibition, D is the maximum % Inhibition (constrained to 100%), C is IC50 value or inflection point, B is the hill slope, and A is the minimum % inhibition (constrained to 0%). The IC50 value is reported as the EC50 or CC50 depending on the assay endpoint. EC50 represents the effective concentration at which virus replication is inhibited by 50 percent. CC50 represents the concentration that results in the death of 50 percent of the host cells. […]

| SMILES | SI |
| --- | --- |
| COc1cc(F)c(/C=C/C2NCCc3cc(OCc4ccccc4)c(OC)cc32)cc1OC (stereo not shown) [BP, 6-Benzyloxy-1-[(E)-2-(2-fluoro-4,5-dimethoxy-phenyl)vinyl]-7-methoxy-1,2,3,4-tetrahydroisoquinoline] | 2.76 |
| COc1cc2c(cc1OCc1ccccc1)CCNC2/C=C/c1ccccc1NC(=O)OC(C)(C)C (stereo not shown) [CW, tert-Butyl N-[2-[(E)-2-(6-benzyloxy-7-methoxy-1,2,3,4-tetrahydroisoquinolin-1-yl)vinyl]phenyl]carbamate] | 4.3 |
| COC(=O)N1CCc2cc(OCc3ccccc3)c(OC)cc2C1/C=C/c1cc(OC)c(OC)cc1C (stereo not shown) [Example I, Methyl 6-benzyloxy-1-[(E)-2-(4,5-dimethoxy-2-methyl-phenyl)vinyl]-7-methoxy-3,4-dihydro-1H-isoquinoline-2-carboxylate] | 22.3 |
| COc1cc(C)c(/C=C/C2c3cc(OC)c(OCc4ccccc4)cc3CCN2C(=O)c2ccccn2)cc1OCc1ccccc1 (stereo not shown) [Example M, [6-benzyloxy-1-[(E)-2-(5-benzyloxy-4-methoxy-2-methyl-phenyl)vinyl]-7-methoxy-3,4-dihydro-1H-isoquinolin-2-yl]-(2-pyridyl)methanone] | 47.8 |
| CCc1cc(OC)c(OCc2ccccc2)cc1/C=C/C1NCCc2cc(OCc3ccccc3)c(OC)cc21 (stereo not shown) [Example AA, 6-benzyloxy-1-[(E)-2-(5-benzyloxy-2-ethyl-4-methoxy-phenyl)vinyl]-7-methoxy-1,2,3,4-tetrahydroisoquinoline] | 26.3 |
| COc1cc2c(cc1OCc1ccccc1)CCNC2/C=C/c1ccc2c(c1)OCC2 (stereo not shown) [EG, 6-Benzyloxy-1-[(E)-2-(2,3-dihydrobenzofuran-6-yl)vinyl]-7-methoxy-1,2,3,4-tetrahydroisoquinoline] | 21.4 |
| COc1cc2c(cc1OCc1ccccc1)CCNC2/C=C/c1ccc(-c2ccccn2)cc1 (stereo not shown) [DZ, 6-Benzyloxy-7-methoxy-1-[(E)-2-[4-(2-pyridyl)phenyl]vinyl]-1,2,3,4-tetrahydroisoquinoline] | 8.9 |
| COc1ccccc1/C=C/C1NCCc2cc(OCc3ccccc3)c(OC)cc21 (stereo not shown) [DG, (E)-6-(benzyloxy)-7-methoxy-1-(2-methoxystyryl)-1,2,3,4-tetrahydroisoquinoline] | 4.1 |
| COc1cc2c(cc1OCc1ccccc1)CCNC2/C=C/c1c[nH]c2ccccc12 (stereo not shown) [CJ, 6-Benzyloxy-1-[(E)-2-(1H-indol-3-yl)vinyl]-7-methoxy-1,2,3,4-tetrahydroisoquinoline] | 13.9 |
| COc1cc2c(cc1OCc1ccccc1)CCNC2/C=C/c1c(C)ccc2c1OCCC2 (stereo not shown) [CC, 6-Benzyloxy-7-methoxy-1-[(E)-2-(7-methylchroman-8-yl)vinyl]-1,2,3,4-tetrahydroisoquinoline] | 4.6 |
| COc1cc2c(cc1OCc1ccccc1)CCNC2/C=C/c1cc2c(cc1C)OCC2 (stereo not shown) [CG, 6-Benzyloxy-7-methoxy-1-[(E)-2-(6-methyl-2,3-dihydrobenzofuran-5-yl)vinyl]-1,2,3,4-tetrahydroisoquinoline] | 34.3 |
| COc1cc2c(cc1OCc1ccccc1)CCNC2/C=C/c1ccccc1 (stereo not shown) [BI, 6-Benzyloxy-7-methoxy-1-[(E)-styryl]-1,2,3,4-tetrahydroisoquinoline] | 4.5 |
| COc1ccc(/C=C/C2c3cc(OC)c(OCc4ccccc4)cc3CCN2C(=O)c2cnccn2)cc1OCc1ccccc1 (stereo not shown) [Example B, [6-Benzyloxy-1-[(E)-2-(3-benzyloxy-4-methoxy-phenyl)vinyl]-7-methoxy-3,4-dihydro-1H-isoquinolin-2-yl]-pyrazin-2-yl-methanone] | 0.5 |
| COc1cc2c(cc1OCc1ccccc1)CCNC2/C=C/c1cc(C)c(OC)c(C(F)(F)F)c1 (stereo not shown) [CZ, (E)-6-(benzyloxy)-7-methoxy-1-(4-methoxy-3-methyl-5-(trifluoromethyl)styryl)-1,2,3,4-tetrahydroisoquinoline] | 1.8 |
| COc1cc2c(cc1OCc1ccccc1)CCNC2/C=C/c1ccc(S(C)(=O)=O)cc1 (stereo not shown) [BZ, 6-Benzyloxy-7-methoxy-1-[(E)-2-(4-methylsulfonylphenyl)vinyl]-1,2,3,4-tetrahydroisoquinoline] | 1 |
| COc1cc2c(cc1OCc1ccccc1)CCNC2/C=C/c1ccc(F)cc1C (stereo not shown) [Example X, 6-benzyloxy-1-[(E)-2-(4-fluoro-2-methyl-phenyl)vinyl]-7-methoxy-1,2,3,4-tetrahydroisoquinoline] | 8.53 |
| COc1cc(C)c(/C=C/C2c3cc(OC)c(OCc4ccccc4)cc3CCN2C)cc1OCc1ccccc1 (stereo not shown) [Example E, 6-Benzyloxy-1-[(E)-2-(5-benzyloxy-4-methoxy-2-methyl-phenyl)vinyl]-7-methoxy-2-methyl-3,4-dihydro-1H-isoquinoline] | 0.8 |
| COc1ccc(/C=C/C2NCCc3cc(OCc4ccccc4)c(OC)cc32)cc1CN1CCCCC1 (stereo not shown) [EM, 6-Benzyloxy-7-methoxy-1-[(E)-2-[4-methoxy-3-(1-piperidylmethyl)phenyl]vinyl]-1,2,3,4-tetrahydroisoquinoline] | 5.6 |
| CCCCOc1cc(/C=C/C2NCCc3cc(OCc4ccccc4)c(OC)cc32)c(C)cc1OC (stereo not shown) [BL, 6-Benzyloxy-1-[(E)-2-(5-butoxy-4-methoxy-2-methyl-phenyl)vinyl]-7-methoxy-1,2,3,4-tetrahydroisoquinoline] | 21.2 |
| COc1cc2c(cc1OCc1ccccc1)CCNC2/C=C/c1cc2c(cc1C)OCCC2 (stereo not shown) [CE, 6-Benzyloxy-7-methoxy-1-[(E)-2-(7-methylchroman-6-yl)vinyl]-1,2,3,4-tetrahydroisoquinoline] | 38.9 |
| CCOCc1cc(/C=C/C2NCCc3cc(OCc4ccccc4)c(OC)cc32)ccc1OC (stereo not shown) [EP, (E)-6-(benzyloxy)-1-(3-(ethoxymethyl)-4-methoxystyryl)-7-methoxy-1,2,3,4-tetrahydroisoquinoline] | 4.7 |
| COc1ccc(/C=C/C2NCCc3cc(OCc4ccccc4)c(OC)cc32)c(OC)n1 (stereo not shown) [CA, 6-Benzyloxy-1-[(E)-2-(2,6-dimethoxy-3-pyridyl)vinyl]-7-methoxy-1,2,3,4-tetrahydroisoquinoline] | 23.9 |
| CCCCOc1ccc(/C=C/C2NCCc3cc(OCc4ccccc4)c(OC)cc32)cc1OC (stereo not shown) [BD, 6-Benzyloxy-1-[(E)-2-(4-butoxy-3-methoxy-phenyl)vinyl]-7-methoxy-1,2,3,4-tetrahydroisoquinoline] | 8.9 |
| CCCCOc1cc(/C=C/C2NCCc3cc(OCc4ccccc4)c(OC)cc32)ccc1OC (stereo not shown) [BE, 6-Benzyloxy-1-[(E)-2-(3-butoxy-4-methoxy-phenyl)vinyl]-7-methoxy-1,2,3,4-tetrahydroisoquinoline] | 37.6 |
| COc1ccc(/C=C/C2NCCc3cc(OCc4ccccc4)c(OC)cc32)cc1Cn1ccnc1C (stereo not shown) [EN, 6-Benzyloxy-7-methoxy-1-[(E)-2-[4-methoxy-3-[(2-methylimidazol-1-yl)methyl]phenyl]vinyl]-1,2,3,4-tetrahydroisoquinolin] | 21.3 |
| CCCCN1CCc2cc(OCc3ccccc3)c(OC)cc2C1/C=C/c1ccc(OC)c(OCc2ccccc2)c1 (stereo not shown) [Example G, 6-Benzyloxy-1-[(E)-2-(3-benzyloxy-4-methoxy-phenyl)vinyl]-2-butyl-7-methoxy-3,4-dihydro-1H-isoquinoline] | 1 |
| COc1cc(C)c(/C=C/C2NCCc3cc(OCc4ccccc4)c(OC)cc32)cc1OCCCC(=O)O (stereo not shown) [BO, 4-[5-[(E)-2-(B-benzyloxy-7-methoxy-1,2,3,4-tetrahydroisoquinolin-1-yl)vinyl]-2-methoxy-4-methyl-phenoxy]butanoic acid] | 38.3 |
| COc1cc2c(cc1OCc1ccccc1)CCNC2/C=C/c1ccc(OC)c2occc12 (stereo not shown) [Example AN, 6-Benzyloxy-7-methoxy-1-[(E)-2-(7-methoxybenzofuran-4-yl)vinyl]-1,2,3,4-tetrahydroisoquinoline] | 26.8 |
